Pooled drug test results. Numbers come from NIAID ChemDB, via PubChem.

All rows: whole-cell or culture tests; species: HIV-1; endpoint: fold resistance

Blank or dashed fields: not listed here. Rows are shuffled and stem from different studies. Fold resistance has wild type as its base.

SMILES,strain or isolate,changes,cells,read by,value
CC(C)=CCN1Cc2cccc3[nH]c(=O)n(c23)CC1C,UC781-R (RT-Y181C),RT-Y181C,CEM + CEM-SS,cytopathic effect / XTT,118
CCOCn1c(Sc2ccccc2)c(CC)c(=O)[nH]c1=S,IIIB (TIBO 82150) (RT-L100I),RT-L100I,CEM,syncytia,5.45
Cc1cc(S(N)(=O)=O)ccc1NC(=O)COc1ccc(Cl)cc1C(=O)c1cc(F)cc(C(F)(F)F)c1,HXB2,RT-Y188C,HeLa + HELA CD4+,β-galactosidase,~1
Cc1cc(C)cc(Cc2c(C(C)C)c(=O)[nH]c(=O)n2COCCO)c1,IIIB,RT-Y181I,CEM,syncytia,>58.8
CCCc1cc(=O)oc2c3c(c4c(c12)OC(C)(C)CC4)O[C@H](C)[C@@H](C)C3=O,4xAZT resistant isolate,RT-D67N K70R T215Y K219Q,,cytopathic effect / XTT,<6
CCCCCOC(=O)c1cc(NC(=O)C2=C(C)OCCS2)ccc1Cl,TSAO-resistant (RT E138K),RT-E138K,CEM,syncytia,15
CC(C)=CCOc1cc(NC(=S)c2ccsc2C)ccc1Cl,NL4-3,RT-K103N,CEM + CEM-SS,p24,12
CCOCn1c(Sc2ccccc2)c(C(C)C)c(=O)[nH]c1=O,IIIB,RT-Y181I,CEM,syncytia,>400
O=C(COc1ccc(Cl)cc1C(=O)c1ccccc1)Nc1ccc(-n2cncn2)cc1,HXB2,RT-K103N,HeLa + HELA CD4+,β-galactosidase,~1
O=C1Nc2ccc(Cl)cc2[C@@](C#CC2CC2)(C(F)(F)F)N1,,RT-P225H,,,<6.32
Cc1ccc(C2CC2)c(-c2ccc3c(c2C)CCCO3)c1[C@H](OC(C)(C)C)C(=O)O,NL4-3,PI-resistant ARP-11807 (L33F/I47A/L63P/A71V/V82A),MT-4,luminescence,1
Cc1occc1C(=S)Nc1ccc(Cl)c(/C=N/OC(C)(C)C)c1,NL4-3,RT-L74V,CEM + CEM-SS,cytopathic effect / XTT,0.875
COC(=O)Oc1ccc(NC(=O)C2=C(C)OCCS2)cc1C(=O)OC(C)C,TSAO-resistant (RT E138K),RT-E138K,CEM,syncytia,>14.3
Cc1cc(OCCCS(N)(=O)=O)ccc1NC(=O)COc1ccc(Cl)cc1C(=O)c1cc(F)cc(C(F)(F)F)c1,HXB2,RT-V108I,HeLa + HELA CD4+,β-galactosidase,~1
CCSCC1=C(C(=O)Nc2ccc(Cl)c(C(=O)OC(C)C)c2)SCCO1,TIBO-resistant (RT L100I),RT-L100I,CEM,syncytia,2.33
C[C@H]1CO[C@@H]2Cn3cc(C(=O)NCc4ccc(F)cc4F)c(=O)c(O)c3C(=O)N12,NL4-3,H51Y/R263K,CBMC,RT activity,1.8
CCCC1=C(C(=O)Nc2ccc(Cl)c(C(=O)OC)c2)SCCO1,TIBO-resistant (RT L100I),RT-L100I,CEM,syncytia,8.67
Cc1cc(S(N)(=O)=O)ccc1NC(=O)COc1ccc(Cl)cc1C(=O)c1cc(Cl)cc(C#N)c1,HXB2,RT-L100I,HeLa + HELA CD4+,β-galactosidase,~1
CC1=C(C(=O)Nc2ccc(Cl)c(C(=O)OC3CCCC3)c2)SCCO1,PYR-resistant (RT Y181C),RT-Y181C,CEM,syncytia,13
C=C(C)[C@@H]1CC[C@]2(C(=O)NCCCCCCCC(=O)N[C@@H](CC(C)C)[C@@H](O)CC(=O)O)CC[C@]3(C)[C@H](CC[C@@H]4[C@@]5(C)CC[C@H](O)C(C)(C)[C@@H]5CC[C@]43C)[C@@H]12,LAI,GP41-A101S,HeLa P4 + HeLa,syncytia,~1
CCOCn1c(Cc2cc(C)cc(C)c2)c(CC)c(=O)[nH]c1=O,IIIB,RT-Y181C,CEM,syncytia,40
Cc1ccc(C2CC2)c(-c2ccc3c(c2)CCCO3)c1[C@H](OC(C)(C)C)C(=O)O,NL4-3,PI-resistant ARP-4595 (M46I/L63P/V82T/I84V),MT-4,luminescence,1
CCc1c(Sc2ccccc2)n(COCc2ccccc2)c(=S)[nH]c1=O,IIIB (TIBO 82150) (RT-L100I),RT-L100I,CEM,syncytia,10
CC(C)[C@H](NC(=O)OCc1ccccn1)C(=O)N[C@@H](Cc1ccccc1)[C@@H](O)C[C@H](Cc1ccccc1)NC(=O)OCc1cccnc1,NL4-3,PR-M46I L63P,MT-4,p24,1
C=CCO/N=C/c1cc(NC(=S)c2ccoc2C)ccc1Cl,4xAZT(RT-D67N K70R T215Y K219Q),RT-D67N K70R T215Y K219Q,CEM + CEM-SS,cytopathic effect / XTT,4.29
C[C@@H]1CCO[C@H]2Cn3cc(C(=O)NCc4ccc(F)cc4F)c(=O)c(O)c3C(=O)N12,,L74I/V75I,TZM-bl,luciferase / luminescence,0.6
CC=CCOc1cc(NC(=S)c2ccoc2C)ccc1OC,NL4-3,RT-V108I,CEM + CEM-SS,cytopathic effect / XTT,3
N#Cc1cc(Cl)cc(Oc2c(Br)ccc(CC(=O)Nc3ccc(S(N)(=O)=O)cc3Cl)c2F)c1,,V106A/F227C,MT-4,,133
Cc1cc(C#N)cc(C(=O)c2cc(Cl)ccc2OCC(=O)Nc2ccc(OCCCN3CC=CC3)cc2C)c1,HXB2,RT-Y181C,HeLa + HELA CD4+,β-galactosidase,~1
CC(C)=CCOc1cc(NC(=S)c2ccsc2C)ccc1Cl,UC10-resistant (RT Y181C K101E),RT-Y181C K101E,CEM + CEM-SS,cytopathic effect / XTT,300
Cc1occc1C(=S)Nc1ccc(Cl)c(C(=O)OCC2CC2)c1,4xAZT/L100I(RT-D67N K70R T215Y K219Q L100I),RT-D67N K70R L100I T215Y K219Q,CEM + CEM-SS,cytopathic effect / XTT,40
CCc1c(Sc2cc(C)cc(C)c2)n(COCCO)c(=S)[nH]c1=O,IIIB TIBO R82913-resistant (RT K103N),RT-K103N,CEM,syncytia,82.5
CC(C)c1c(OC#CC2CC2)c2cc(Cl)ccc2[nH]c1=O,NNRTI-resistant (RT K103N Y181C),RT-K103N Y181C,HeLa + HeLa-MAGI,β-galactosidase,38.75
Cc1cc(C#N)cc(C(=O)c2cc(Cl)ccc2OCC(=O)Nc2cnc(S(N)(=O)=O)cc2C)c1,HXB2,RT-L100I,HeLa + HELA CD4+,β-galactosidase,~1
Cc1ccsc1C(=S)Nc1ccc(Cl)c(/C=N/OC(C)C)c1,CALO(RT-T139I),RT-T139I,CEM + CEM-SS,cytopathic effect / XTT,1.43
Cc1c(OCC2CCC2)c2cc(F)ccc2[nH]c1=O,NNRTI-resistant (RT K103N G190A),RT-K103N G190A,HeLa + HeLa-MAGI,β-galactosidase,>3.28
Cc1cc(C#N)cc(C(=O)c2cc(Cl)ccc2OCC(=O)Nc2ccc(S(N)(=O)=O)nc2C)c1,HXB2,RT-P225H,HeLa + HELA CD4+,β-galactosidase,~1
CCC1=C(C(=O)Nc2ccc(Cl)c(C(=O)OCC(C)C)c2)SCCO1,TSAO-resistant (RT E138K),RT-E138K,CEM,syncytia,10
O=C1Nc2ccc(F)c(F)c2[C@@](C#CC2CC2)(C(F)(F)F)N1,,RT-V108I,,,<13.3
CC1=C(C(=O)Nc2ccc(Cl)c(C(=O)OC(C)C)c2)SCCO1,CALO(RT-T139I),RT-T139I,CEM + CEM-SS,cytopathic effect / XTT,2
CCC(=O)c1ccc(F)c([C@@H]2C[C@@H]2NC(=O)Nc2ccc(C#N)cn2)c1O,LAI,NNRTI-resistant (RT K101E/Y181C),TZM-bl,β-galactosidase / luminescence,52.5
CC(C)=CCOc1cc(NC(=S)c2ccoc2C)ccc1Cl,NL4-3 (RT L100I),RT-L100I,CEM + CEM-SS,cytopathic effect / XTT,66.7
O=C(O[C@@H]1[C@H](OC(=O)c2ccccc2)[C@@H](CO)O[C@H]1n1cnc2c(N(C(=O)c3ccccc3)C(=O)c3ccccc3)ncnc21)c1ccccc1,NL4-3,E138K,HeLaP4,β-galactosidase,0.89
CC1=C(C(=O)Nc2cc(C(=O)OC(C)C)c(C)cc2F)SCCO1,PYR-resistant (RT Y181C),RT-Y181C,CEM,syncytia,>4.35
Cc1cc(OCCCN2CCOCC2)ccc1NC(=O)COc1ccc(Cl)cc1C(=O)c1cccs1,HXB2,RT-K103N,HeLa + HELA CD4+,β-galactosidase,~1
Cc1occc1C(=S)Nc1ccc(Cl)c(C(=O)OC(C)C)c1,NL4-3,RT-V108I,CEM + CEM-SS,cytopathic effect / XTT,3